Compound potency records, mixed from different reports. Data source: NIAID ChemDB in PubChem.

Common to all: growth or infection tests; agent: HIV-1

Blank or dashed fields: not listed here. ECn: concentration that inhibits the pathogen or its effect by n%. Lines come from different laboratories, so protocols vary.

SMILES | changes | read-out | cell line | method | strain or isolate | value
CCCCCCCCCCCCCCCCCCOC(=O)c1cc(O)c(O)c(O)c1 |  | EC50 | MT-4 | cytopathic effect / MTT | IIIB | >3.1 µg/mL
COc1ccc(S(=O)(=O)N(CC2CCCC2)C[C@@H](O)CN(CCc2ccccc2)C(=O)c2cccc(O)c2C)cc1 |  | EC90 | CEM | p24 | IIIB | 0.1 µM
CCn1nc(CC(=O)NN=C(C)C)nc1C |  | EC50 | MT-4 | cytopathic effect | IIIB | >95.1 µg/mL
N#C[C@]1(CO)O[C@@H](n2cnc3c(N)nc(N)nc32)C[C@@H]1O |  | EC50 | MT-4 | absorbance | NL4-3 | 0.0003 µM
Cc1ccccc1-c1nnc2sc(CC34CC5CC(CC(C5)C3)C4)nn12 |  | EC50 | MT-4 | cytopathic effect / MTT | IIIB | >11.5 µg/mL
Cc1cn([C@@H]2O[C@H](COC(c3ccccc3)(c3ccccc3)c3ccccc3)[C@@H](N=[N+]=[N-])[C@H]2F)c(=O)[nH]c1=O |  | EC50 | H9 | antigen | IIIB | >1000 µM
C=Cc1c(C)c2cc3[nH]c(cc4nc(cc5nc(cc1[nH]2)C(C)=C5CCCO)C(CCCO)=C4C)c(C)c3C=C |  | EC50 | MT-4 | cytopathic effect | LAV | <10 µg/mL
OCCN(CCO)c1nc(-c2cccs2)cc(-c2cccs2)n1 |  | EC50 | PBMC | RT activity | LAV-1 | 4.5 µM
C=C[C@]1(CO)O[C@@H](n2cnc3c(=O)[nH]c(N)nc32)C[C@@H]1O |  | EC50 | MT-4 | absorbance | NL4-3 | 0.004 µM
O=C1O[C@H]2[C@@H]3OC(=O)c4cc(O)c(O)c(O)c4-c4c(cc(Oc5c(C(=O)O[C@H]6[C@H](OC(=O)c7cc(O)c(O)c(O)c7)O[C@H](COC(=O)c7cc(O)c(O)c(O)c7)[C@@H](OC(=O)c7cc(O)c(O)c(O)c7)[C@@H]6OC(=O)c6cc(O)c(O)c(O)c6)cc(O)c(O)c5O)c(O)c4O)C(=O)OC[C@H]2O[C@@H](OC(=O)c2cc(O)c(O)c(O)c2)[C@@H]3OC(=O)c2cc(O)c(O)c3c2[C@H]2C(=O)[C@@](O)(O3)C(=O)C=C12 |  | EC50 | MT-4 | cytopathic effect / MTT | IIIB | >50 µg/mL
Cc1cn([C@@H]2O[C@H](CO)[C@@H](F)[C@@H]2F)c(=O)[nH]c1=O |  | EC50 | H9 | antigen | IIIB | >1000 µM
CCc1nc(CC(=O)NN=C(C)C)nn1CC |  | EC50 | MT-4 | cytopathic effect | IIIB | >117 µg/mL
Cc1nnc(C(C)C)n1C1C[C@H]2CC[C@@H](C1)N2CC[C@H](NC(=O)C1CCC(F)(F)CC1)c1ccccc1 |  | EC50 | TZM-bl | luciferase | CH058 | 0.037 µM
[N-]=[N+]=N[C@]1(CO)O[C@@H](n2cnc3c(N)nc(N)nc32)C[C@@H]1O |  | EC50 | MT-4 | absorbance | NL4-3 | 0.003 µM
Clc1cccc(-c2nnc3sc(CC45CC6CC(CC(C6)C4)C5)nn23)c1 |  | EC50 | MT-4 | cytopathic effect / MTT | IIIB | >125 µg/mL
O=c1[nH]c(=O)n([C@H]2C[C@H](O)[C@@H](CO)O2)cc1CO |  | EC50 | MT-4 | cytopathic effect / MTT |  | 0.75 µg/mL
CC1=C(CCC(=O)O)c2cc3nc(cc4[nH]c(cc5[nH]c(cc1n2)c(C)c5C(C)O)c(C)c4C(C)O)C(C)=C3CCC(=O)O |  | EC50 | MT-4 | cytopathic effect | LAV | <10 µg/mL
O=C1Nc2ccc(Cl)cc2[C@@](C#CC2CC2)(C(F)(F)F)O1 | V106A/F227C | EC50 | MT-4 |  |  | 0.079 µM
CC(=O)CCCCCCCCCCCCC[C@@H]1OC(=O)[C@@H](C)[C@@H]1C(=O)O |  | EC50 | C8166 | cytopathic effect / syncytia | IIIB | 0.66 µM
COC(=O)CCC1=C(C)c2cc3[nH]c(cc4[nH]c(cc5nc(cc1n2)C(C)=C5CCC(=O)OC)c(C)c4CCC(=O)OC)c(CCC(=O)OC)c3C |  | EC50 | MT-4 | cytopathic effect | LAV | <10 µg/mL
CCc1c(Sc2ccccc2)n(COCc2ccccc2)c(=O)[nH]c1=O |  | EC50 | MT-4 | p24 | A018A | 0.0095 µM
COc1ccc(S(=O)(=O)N(CC[C@H](O)CN(CC(C)C)S(=O)(=O)c2ccc(OC)cc2)CC(C)C)cc1 |  | EC50 | CEM | p24 | IIIB | <0.1 µM
Nc1ncnc2c1ncn2[C@@H]1O[C@H](COP(=O)(O)O[C@@H]2C[C@@H](COP(=O)(O)O[C@@H]3[C@H](O)[C@@H](CO)O[C@H]3n3cnc4c(N)ncnc43)O[C@H]2n2cnc3c(N)ncnc32)[C@@H](O)[C@H]1O |  | EC50 | MT-2 | cytopathic effect / neutral red |  | 2.8 µM
O=C1O[C@H]2[C@H]3OC(=O)c4cc(O)c(O)c(O)c4-c4c(cc(Oc5c(C(=O)O[C@@H]6O[C@@H]7COC(=O)c8cc(O)c(O)c(O)c8-c8c(cc(O)c(O)c8O)C(=O)O[C@H]7[C@H](OC(=O)c7cc(O)c(O)c(O)c7)[C@H]6OC(=O)c6cc(O)c(O)c(O)c6)cc(O)c(O)c5O)c(O)c4O)C(=O)OC[C@H]2O[C@H](OC(=O)c2cc(O)c(O)c(O)c2)[C@H]3OC(=O)c2cc(O)c(O)c3c2C2C1=CC(=O)C(O)(O)C2(O)O3 |  | EC50 | MT-4 | cytopathic effect / MTT | IIIB | >50 µg/mL
CC1=C(CCC(=O)O)c2cc3nc(cc4[nH]c(cc4C)cc4[nH]c(cc1n2)cc4C)C(C)=C3CCC(=O)O |  | EC50 | MT-4 | cytopathic effect | LAV | <10 µg/mL
CCn1nc(CC(=O)N/N=C/c2ccccc2)nc1C |  | EC50 | MT-4 | cytopathic effect | IIIB | >104 µg/mL
Brc1cccc(-c2nnc3sc(CC45CC6CC(CC(C6)C4)C5)nn23)c1 |  | EC50 | MT-4 | cytopathic effect / MTT | IIIB | >125 µg/mL
Nc1nc2c(ncn2[C@H]2C[C@H](O)[C@](CO)(C(F)(F)F)O2)c(=O)[nH]1 |  | EC50 | MT-4 | absorbance | NL4-3 | 0.027 µM
Cc1cn([C@@H]2O[C@H](CO)C=C2F)c(=O)[nH]c1=O |  | EC50 | H9 | antigen | IIIB | >1000 µM
Brc1ccccc1-c1nnc2sc(CC34CC5CC(CC(C5)C3)C4)nn12 |  | EC50 | MT-4 | cytopathic effect / MTT | IIIB | >24.7 µg/mL
Nc1ccn([C@@H]2O[C@H](COP(=O)(O)O[C@@H]3[C@H](O)[C@@H](COP(=O)(O)O[C@@H]4[C@H](O)[C@@H](COP(=O)(O)O[C@@H]5[C@H](O)[C@@H](COP(=O)(O)O)O[C@H]5n5ccc(N)nc5=O)O[C@H]4n4ccc(N)nc4=O)O[C@H]3n3ccc(N)nc3=O)[C@@H](O)[C@H]2O)c(=O)n1 |  | EC50 | MT-2 | cytopathic effect / neutral red |  | >25 µM
COc1ccc(S(=O)(=O)N(CC(C)C)C[C@@H](O)CCN(CC2CCCC2)S(=O)(=O)C(C)(C)C)cc1 |  | EC50 | CEM | p24 | IIIB | <1 µM
Cc1c(Sc2ccccc2)n(COCc2ccccc2)c(=O)[nH]c1=O |  | EC50 | MT-4 | cytopathic effect / MTT | IIIB | 0.093 µM
C/C(=C\CC/C(C)=C/C(=O)O)C/C=C/[C@@]1(C)CCC(C(C)(C)O)O1 |  | EC50 | C8166 | cytopathic effect / syncytia | IIIB | 1.03 µM
Cc1ccc(-c2nnc3sc(CC45CC6CC(CC(C6)C4)C5)nn23)cc1 |  | EC50 | MT-4 | cytopathic effect / MTT | IIIB | >125 µg/mL
NCCNc1nc(-c2cccs2)cc(-c2cccs2)n1 |  | EC50 | PBMC | RT activity | LAV-1 | 2.6 µM
O=C(O[C@H]1O[C@@H]2COC(=O)c3cc(O)c(O)c(O)c3-c3c(cc(O)c(O)c3O)C(=O)O[C@H]2[C@@H]2OC(=O)c3cc(O)c(O)c(O)c3-c3c(cc(O)c(O)c3O)C(=O)O[C@@H]12)c1cc(O)c(O)c(Oc2c(C(=O)O[C@H]3O[C@@H]4COC(=O)c5cc(O)c(O)c(O)c5-c5c(cc(O)c(O)c5O)C(=O)O[C@H]4[C@@H]4OC(=O)c5cc(O)c(O)c(O)c5-c5c(cc(O)c(O)c5O)C(=O)O[C@@H]34)cc(O)c(O)c2O)c1 |  | EC50 | MT-4 | cytopathic effect / MTT | IIIB | >50 µg/mL
C=C[C@]1(CO)O[C@@H](n2cnc3c(N)nc(N)nc32)C[C@@H]1O |  | EC50 | MT-4 | absorbance | NL4-3 | 0.004 µM
COc1ccc(S(=O)(=O)N(CC(C)C)C[C@@H](O)CCN(CC2CCCC2)S(=O)(=O)C2CCCC2)cc1 |  | EC50 | CEM | p24 | IIIB | <1 µM
O=C(NCCc1ccccc1)C1=Cc2ccncc2CC1 |  | EC50 | CEM + CEM-SS | cytopathic effect / MTT | RF | >34 µM
O=C(/C=C/c1ccc(O)c(O)c1)OC(Cc1ccc(O)c(O)c1)C(=O)O |  | EC50 | MT-4 | cytopathic effect / MTT | IIIB | >50 µg/mL
Cc1cn([C@@H]2O[C@H](COC(c3ccccc3)(c3ccccc3)c3ccccc3)[C@H](O)[C@H]2N=[N+]=[N-])c(=O)[nH]c1=O |  | EC50 | H9 | antigen | IIIB | >1000 µM
Clc1ccc(-c2nnc3sc(CC45CC6CC(CC(C6)C4)C5)nn23)cc1 |  | EC50 | MT-4 | cytopathic effect / MTT | IIIB | >125 µg/mL
CC(C)Oc1ccccc1CNC(=O)c1ccc2cnccc2n1 |  | EC50 | CEM + CEM-SS | cytopathic effect / XTT | IIIB | >31 µM
c1csc(-c2cc(-c3cccs3)nc(N3CCOCC3)n2)c1 |  | EC50 | PBMC | RT activity | LAV-1 | 48.5 µM
O=CC(OC(=O)c1cc(O)c(O)c(O)c1Oc1cc2c(c(O)c1O)-c1c(cc(O)c(O)c1O)C(=O)OC1C(COC2=O)OC(OC(=O)c2cc(O)c(O)c(O)c2)C(OC(=O)c2cc(O)c(O)c(O)c2)C1OC(=O)c1cc(O)c(O)c(O)c1)C(OC(=O)c1cc(O)c(O)c(O)c1)C1OC(=O)c2cc(c(O)c(O)c2O)-c2c(cc(O)c(O)c2O)C(=O)OCC1O |  | EC50 | MT-4 | cytopathic effect / MTT | IIIB | >50 µg/mL
COc1ccc(S(=O)(=O)N(Cc2ccccc2)CC(F)(F)C(=O)[C@@H](Cc2ccccc2)NC(=O)O[C@H]2CCOC2)cc1 |  | EC50 | CEM | p24 | IIIB | <1 µM
Cc1cn([C@@H]2O[C@H](COC(c3ccccc3)(c3ccccc3)c3ccccc3)[C@@H](OS(C)(=O)=O)[C@@H]2F)c(=O)[nH]c1=O |  | EC50 | H9 | antigen | IIIB | >1000 µM
CCCCCC(O)/C=C/C=C\CCCCCC[C@@H]1C(=O)O[C@@](O)(CO)[C@H]1O |  | EC50 | C8166 | cytopathic effect / syncytia | IIIB | 0.18 µM
COc1ccc(S(=O)(=O)N(CC(C)C)C[C@@H](O)CCN(CC2CCCC2)S(=O)(=O)C2C(=O)CC(C)(C)SC2=O)cc1 |  | EC90 | CEM | p24 | IIIB | 1 µM
CCCOC(=O)c1cc(O)c(O)c(O)c1 |  | EC50 | MT-4 | cytopathic effect / MTT | IIIB | >12.5 µg/mL
S=c1[nH]nc(Cc2nc3n(n2)CCCCC3)o1 |  | EC50 | MT-4 | cytopathic effect | IIIB | >66.6 µg/mL
Cc1cn2c(nc1=O)OC1[C@H]2O[C@H](COC(c2ccccc2)(c2ccccc2)c2ccccc2)[C@H]1OC(=S)n1ccnc1 |  | EC50 | H9 | antigen | IIIB | >1000 µM
O=CC1OC(=O)c2cc(O)c(O)c(O)c2Oc2cc3c(c(O)c2O)-c2c(cc(O)c(O)c2O)C(=O)OCC2OC(OC(=O)c4cc(O)c(O)c(O)c4Oc4cc5c(c(O)c4O)-c4c(cc(O)c(O)c4O)C(=O)OC(C(O)COC5=O)C1OC(=O)c1cc(O)c(O)c(O)c1)C(OC(=O)c1cc(O)c(O)c(O)c1)C(OC(=O)c1cc(O)c(O)c(O)c1)C2OC3=O |  | EC50 | MT-4 | cytopathic effect / MTT | IIIB | >4.8 µg/mL

6 of the rows above, restated:

| SMILES | changes | read-out | cell line | method | strain or isolate | value |
|---|---|---|---|---|---|---|
| COc1ccc(S(=O)(=O)N(CC(C)C)C[C@@H](O)CCN(CC2CCCC2)S(=O)(=O)C2C(=O)CC(C)(C)SC2=O)cc1 |  | EC90 | CEM | p24 | IIIB | 1 µM |
| Brc1ccccc1-c1nnc2sc(CC34CC5CC(CC(C5)C3)C4)nn12 |  | EC50 | MT-4 | cytopathic effect / MTT | IIIB | >24.7 µg/mL |
| CCCOC(=O)c1cc(O)c(O)c(O)c1 |  | EC50 | MT-4 | cytopathic effect / MTT | IIIB | >12.5 µg/mL |
| O=CC(OC(=O)c1cc(O)c(O)c(O)c1Oc1cc2c(c(O)c1O)-c1c(cc(O)c(O)c1O)C(=O)OC1C(COC2=O)OC(OC(=O)c2cc(O)c(O)c(O)c2)C(OC(=O)c2cc(O)c(O)c(O)c2)C1OC(=O)c1cc(O)c(O)c(O)c1)C(OC(=O)c1cc(O)c(O)c(O)c1)C1OC(=O)c2cc(c(O)c(O)c2O)-c2c(cc(O)c(O)c2O)C(=O)OCC1O |  | EC50 | MT-4 | cytopathic effect / MTT | IIIB | >50 µg/mL |
| O=c1[nH]c(=O)n([C@H]2C[C@H](O)[C@@H](CO)O2)cc1CO |  | EC50 | MT-4 | cytopathic effect / MTT |  | 0.75 µg/mL |
| O=C1O[C@H]2[C@@H]3OC(=O)c4cc(O)c(O)c(O)c4-c4c(cc(Oc5c(C(=O)O[C@H]6[C@H](OC(=O)c7cc(O)c(O)c(O)c7)O[C@H](COC(=O)c7cc(O)c(O)c(O)c7)[C@@H](OC(=O)c7cc(O)c(O)c(O)c7)[C@@H]6OC(=O)c6cc(O)c(O)c(O)c6)cc(O)c(O)c5O)c(O)c4O)C(=O)OC[C@H]2O[C@@H](OC(=O)c2cc(O)c(O)c(O)c2)[C@@H]3OC(=O)c2cc(O)c(O)c3c2[C@H]2C(=O)[C@@](O)(O3)C(=O)C=C12 |  | EC50 | MT-4 | cytopathic effect / MTT | IIIB | >50 µg/mL |